Results deposited as PubChem BioAssay AID1259414 (Drosophila RNAi Screening Center, 2018)

- Aim: 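Host factors increasing or decreasing Wolbachia levels in cultured fly cells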 (primary screen)
- Cells: Drosophila JW18 cells infected with Wolbachia
- Reagents: long dsRNA against Drosophila genes, 0.25 µg dsRNA per well of a 384-well plate
- Timing: 5 days
- Treatment: cells persistently infected with Wolbachia before knock-down; no added drug
- Read-out: 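Imaged fluorescence in situ signal for Wolbachia 23S rRNA per DAPI-counted host cell, given as a robust z-score within each plate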
- Direction: Wolbachia per cell robust z: higher = more Wolbachia per host cell than the plate typical
- Call rule: 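Active if absolute robust z reaches 1.5 in two or more of three replicates, leaving out multi- or no-target dsRNAs, genes unexpressed in JW18 and A1 wells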
The screen tested about 24,000 reagents; below is a random part of those that have a named target and a result. Of all reagents, about 1,210 (5%) are marked active. 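Inactive calls also include excluded dsRNAs with several or no targets, genes unexpressed in JW18, and well A1, regardless of score.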 Names joined by + are all predicted targets of the reagent. No sequences are given here.

| Target gene | dsRNA | Wolbachia per cell robust z, rep 1 | Wolbachia per cell robust z, rep 2 | Wolbachia per cell robust z, rep 3 | activity call |
| --- | --- | --- | --- | --- | --- |
| CG33226 | DRSC37794 | 1.18 | 1.26 | 0.364 | inactive |
| Snap29 | DRSC04721 | 0.13 | -0.87 | -0.112 | inactive |
| Snap29 | DRSC24658 | -0.119 | 0.00109 | -0.295 | inactive |
| RIC-3 | DRSC04243 | 1.62 | 0.708 | 0.89 | inactive |
| RIC-3 | DRSC04543 | -0.526 | -0.855 | -0.82 | inactive |
| grnd | DRSC02020 | -0.315 | 0.755 | 1.75 | inactive |
| CG13744 | DRSC06415 | 0.222 | 0.921 | 0.151 | inactive |
| zfh1 | DRSC17098 | 6.78 | 6.54 | 6.14 | active |
| zfh1 | DRSC26931 | 4.73 | 7.78 | 8.14 | active |
| CG1368 | DRSC19537 | -0.0497 | -0.106 | -0.0931 | inactive |
| CG1368 | DRSC25431 | -0.256 | -0.526 | -0.91 | inactive |
| CG1368 | DRSC38997 | -0.503 | 1.26 | -0.171 | inactive |
| scpr-C + scpr-A | DRSC15737 | 0.558 | 0.174 | 0.331 | inactive |
| mTerf3 | DRSC11759 | -2.01 | -0.235 | 0.0643 | inactive |
| Uro | DRSC03469 | -1.03 | -0.855 | -0.393 | inactive |
| Rbp1 | DRSC16817 | -0.795 | -6.43 | -0.0493 | inactive |
| MFS14 | DRSC06524 | 0.714 | 0.713 | 1.29 | inactive |
| MFS14 | DRSC29787 | 0.558 | 1.12 | 0.466 | inactive |
| sano | DRSC06165 | -0.551 | -1.11 | -0.525 | inactive |
| sano | DRSC26307 | 0.53 | 1.06 | 0.0845 | inactive |
| Ras85D | DRSC16814 | -3.63 | 2.27 | 3.43 | active |
| Ras85D | DRSC39132 | -2.4 | 0.188 | 0.13 | inactive |
| glob3 | DRSC12261 | -0.954 | 0.302 | -9.05 | inactive |
| Or22c | DRSC00766 | -0.313 | -1.13 | -0.881 | inactive |
| Or22c | DRSC26292 | 0.089 | -0.987 | -1.02 | inactive |
| Gr58b | DRSC04140 | 0.39 | 0.473 | 0.739 | inactive |
| Cerk | DRSC12285 | 0.496 | -5.25 | 0.462 | inactive |
| mute + Ufm1 | DRSC26798 | 1.02 | -0.237 | 0.0972 | inactive |
| CG34348 | DRSC19425 | 0.83 | 0.649 | 0.399 | inactive |
| CG34348 | DRSC19644 | 0.919 | 0.688 | -0.897 | inactive |
| CG5554 | DRSC04513 | 0.795 | 1.31 | 1.27 | inactive |
| CG5554 | DRSC25559 | 0.815 | 0.217 | 0.853 | inactive |
| Rab23 | DRSC12305 | -3.05 | -0.233 | -1.88 | active |
| Rab23 | DRSC25339 | 0.73 | -0.677 | 1.1 | inactive |
| ND-49 | DRSC17151 | 0.533 | -6.01 | 0.307 | inactive |
| CG10588 | DRSC11628 | 1.11 | -1.18 | 1.49 | inactive |
| DnaJ-60 + CG42568 | DRSC04207 | -0.702 | 0.272 | 0.281 | inactive |
| DnaJ-60 + CG42568 | DRSC04611 | 0.17 | -0.339 | 0.401 | inactive |
| DnaJ-60 + CG42568 | DRSC27072 | -1.1 | -0.563 | 0.595 | inactive |
| CIA30 | DRSC16266 | 0.554 | 0.215 | -4.24 | inactive |

Copied from the list:
scpr-C + scpr-A [DRSC15737], Wolbachia per cell robust z, rep 1 = 0.558
glob3 [DRSC12261], Wolbachia per cell robust z, rep 2 → 0.302
For “Wolbachia per cell robust z, rep 3”, CG34348 [DRSC19425] is entered as 0.399
Value for RIC-3 [DRSC04243] in “activity call”: inactive
Under “activity call”, MFS14 [DRSC06524] reads inactive
For “Wolbachia per cell robust z, rep 1”, CG33226 [DRSC37794] shows 1.18

Next records follow:
| Target gene | dsRNA | Wolbachia per cell robust z, rep 1 | Wolbachia per cell robust z, rep 2 | Wolbachia per cell robust z, rep 3 | activity call |
| --- | --- | --- | --- | --- | --- |
| CG6686 | DRSC02979 | 1.17 | 0.000687 | 1.1 | inactive |
| CG6686 | DRSC27705 | -0.7 | -1.01 | 0.651 | inactive |
| Claspin | DRSC08308 | -2.36 | -1.07 | 0.43 | inactive |
| CG42464 | DRSC40647 | 0.31 | -2.02 | -1.58 | inactive |
| Taf10 | DRSC30091 | 0.935 | 2.35 | 0.84 | inactive |
| SerRS-m | DRSC14096 | -0.391 | -4.7 | 1.18 | inactive |
| RpL28 + snoRNA:Or-CD12 | DRSC08293 | 3.61 | 2.83 | 3.11 | inactive |
| CG4951 | DRSC15682 | -0.673 | -0.633 | 0.26 | inactive |
| mRpL24 | DRSC03113 | 0.152 | -0.0409 | -0.00673 | inactive |
| Sf3a1 | DRSC15166 | 0.586 | 1.31 | 3.32 | inactive |
| CG42764 | DRSC40539 | 0.28 | -1.22 | 0.21 | inactive |
| CG42764 | DRSC40540 | 0.649 | -2.65 | -1.76 | inactive |
| Vha14-1 | DRSC07571 | 1.62 | 1.57 | 0.439 | active |
| snRNA:U2:34ABb | DRSC37897 | 1.68 | 0.00658 | 0.147 | inactive |
| Nach | DRSC07478 | -3.61 | 0.354 | -2.53 | inactive |
| Yod1 | DRSC10433 | -0.132 | 0.788 | 0.473 | inactive |
| Yod1 | DRSC27122 | -1.93 | -0.62 | -0.439 | inactive |
| bor | DRSC16915 | 0.75 | -3.49 | -1.97 | active |
| CG9173 | DRSC08635 | -0.827 | -0.927 | -0.455 | inactive |
| Alms1a + Alms1b | DRSC27416 | 0.0252 | -6.26 | 0.0915 | inactive |
| djl | DRSC12578 | 2.23 | 0.226 | -0.661 | inactive |
| djl | DRSC25609 | 1.09 | -1.5 | -1.23 | inactive |
| tor | DRSC07707 | -0.899 | 0.133 | 0.783 | inactive |
| PPO2 | DRSC07102 | 0.5 | 1.12 | -1.21 | inactive |
| CG10958 | DRSC17768 | -0.206 | -1.61 | -0.021 | inactive |
| CG10958 | DRSC29583 | -1.08 | -0.447 | 0.214 | inactive |
| CG3040 | DRSC22486 | -0.354 | 0.223 | 0.191 | inactive |
| CG6421 | DRSC07420 | 0.446 | -0.763 | 0.174 | inactive |
| CG6421 | DRSC29544 | 0.683 | 0.731 | 1.18 | inactive |
